Results deposited as PubChem BioAssay AID624099 (ICCB-Longwood, 2012).

Purpose: 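Knock-downs relieving repression by E2 of an HPV18 LCR luciferase reporter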 (primary screen)
Cell system: human C33A cervical carcinoma cells (HPV-negative) stably expressing BPV1 E2 and an HPV18 LCR luciferase reporter
Knock-down reagent: siRNA pool against human genes, 40 nM
Time to read-out: 72 h
Measurement: 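HPV18 LCR reporter light per well, converted to plate-wise z-scores that exclude control wells, and averaged over triplicate plates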
Direction: mean z-score and z-score: higher = stronger reporter signal, weaker E2 silencing
Call rule: 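Mean z ≥ 2 together with z ≥ 2 in two or more of the three replicates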
This is a random part of about 21,000 reagents tested. Over the whole deposit, 497 (2.4%) are marked active. 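Higher z means weaker E2 silencing; only reporter increases were scored, and knock-downs that hurt cell survival may mask genuine repressor factors.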

Against RRAGC (GeneID 64121) the deposit lists mean z-score 1.97; z-score, replicate A = 2.18; z-score, replicate B = 2.04; z-score, replicate C = 1.68; inactive.
Against IL4R (GeneID 3566), the entry reads mean z-score -0.98; z-score, replicate A = -1.11; z-score, replicate B = -0.8; z-score, replicate C = -1.04; inactive.
With knock-down of OR2G6 (GeneID 391211) the results were mean z-score -1.46; z-score, replicate A = -1.69; z-score, replicate B = -1.49; z-score, replicate C = -1.18; inactive.
Silencing of LOC401032 (retired record) (GeneID 401032) resulted in: mean z-score 0.87; z-score, replicate A = 1.17; z-score, replicate B = 0.59; z-score, replicate C = 0.84; inactive.
CNTNAP5 (GeneID 129684) gave mean z-score 0.2; z-score, replicate A = 0.53; z-score, replicate B = 0.13; z-score, replicate C = -0.05; inactive.
Against C1orf52 (GeneID 148423) the deposit lists mean z-score 0.44; z-score, replicate A = 0.4; z-score, replicate B = 0.71; z-score, replicate C = 0.19; inactive.
After knock-down of PPP2R5A (GeneID 5525) the results were mean z-score 0.01; z-score, replicate A = -0.03; z-score, replicate B = 0.2; z-score, replicate C = -0.14; inactive.
Silencing of APOA5 (GeneID 116519) resulted in: mean z-score 1.38; z-score, replicate A = 1.32; z-score, replicate B = 1.39; z-score, replicate C = 1.44; inactive.
After knock-down of CINP (GeneID 51550), the record shows mean z-score 0.78; z-score, replicate A = 0.12; z-score, replicate B = 1.12; z-score, replicate C = 1.11; inactive.
Depletion of SOX5 (GeneID 6660) came out at: mean z-score 0.81; z-score, replicate A = 0.83; z-score, replicate B = 0.67; z-score, replicate C = 0.93; inactive.
For GTF2IRD2 (GeneID 84163) the deposit lists mean z-score 1.03; z-score, replicate A = 1.06; z-score, replicate B = 0.95; z-score, replicate C = 1.08; inactive.
Against NNT (GeneID 23530), the entry reads mean z-score 2.82; z-score, replicate A = 2.23; z-score, replicate B = 3.22; z-score, replicate C = 3; active.
